What was measured:
[1] = target: RBDWuhan (SARS-CoV-2 spike RBD, Wuhan-Hu-1 variant) (Severe acute respiratory syndrome coronavirus 2, UniProt P0DTC2); assay type: binding; conditions: read-out: K D values RBDWuhan
[2] = target: RBDBA.1 (SARS-CoV-2 spike RBD, Omicron BA.1 variant) (Severe acute respiratory syndrome coronavirus 2, UniProt P0DTC2, E484A/G339D/G446S/G496S/K417N/N440K/N501Y/Q493R/Q498R/S371L/S373P/S375F/S477N/T478K/Y505H); assay type: binding; conditions: read-out: K D values RBDBA.1

iofendylate
Kd [1]: > 1000 µM | Kd [2]: > 1000 µM

From publication PMC12423841 (ACS Omega, 2025)
